{"source": "PubChem BioAssay AID624099, ICCB-Longwood – 2012", "assay": "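Human genes that papillomavirus E2 requires to repress the HPV18 LCR promoter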 (primary screen)", "system": "human C33A cervical carcinoma cells (HPV-negative) stably expressing BPV1 E2 and an HPV18 LCR luciferase reporter", "reagent": "siRNA pool against human genes, 40 nM", "timing": "72 h", "detection": "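Per-well luciferase luminescence, z-scored on each plate against the plate mean and SD with control wells left out, then averaged across three replicate plates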", "direction": "mean z-score and z-score: higher = stronger reporter signal, weaker E2 silencing", "active means": "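Mean z ≥ 2 together with z ≥ 2 in two or more of the three replicates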", "note": "The whole screen tested about 21,000 reagents; shown is an unselected part. Of all reagents, 497 (2.4%) were called active. 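Higher z means weaker E2 silencing; only reporter increases were scored, and knock-downs that hurt cell survival may mask genuine repressor factors.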 A number with no mark means an inactive call."}
The opening 2 records, ahead of the listing:
{"gene knocked down":"PFDN4 (GeneID 5203)","mean z-score":1.19,"z-score, replicate A":1.06,"z-score, replicate B":1.04,"z-score, replicate C":1.47}
{"gene knocked down":"TMEM135 (GeneID 65084)","mean z-score":-1.07,"z-score, replicate A":-0.83,"z-score, replicate B":-1.21,"z-score, replicate C":-1.16}

Main list, from the first entry:
{"gene knocked down":"PFDN4 (GeneID 5203)","mean z-score":1.19,"z-score, replicate A":1.06,"z-score, replicate B":1.04,"z-score, replicate C":1.47}
{"gene knocked down":"TMEM135 (GeneID 65084)","mean z-score":-1.07,"z-score, replicate A":-0.83,"z-score, replicate B":-1.21,"z-score, replicate C":-1.16}
{"gene knocked down":"PPP1R27 (GeneID 116729)","mean z-score":0.18,"z-score, replicate A":-0.03,"z-score, replicate B":0.37,"z-score, replicate C":0.21}
{"gene knocked down":"PHRF1 (GeneID 57661)","mean z-score":0.37,"z-score, replicate A":0.81,"z-score, replicate B":0.12,"z-score, replicate C":0.18}
{"gene knocked down":"CBS (GeneID 875)","mean z-score":-0.93,"z-score, replicate A":-1.15,"z-score, replicate B":-0.87,"z-score, replicate C":-0.76}
{"gene knocked down":"PBX2 (GeneID 5089)","mean z-score":0.41,"z-score, replicate A":0.3,"z-score, replicate B":0.56,"z-score, replicate C":0.36}
{"gene knocked down":"LHPP (GeneID 64077)","mean z-score":0.28,"z-score, replicate A":0.13,"z-score, replicate B":0.46,"z-score, replicate C":0.27}
{"gene knocked down":"INTS8 (GeneID 55656)","mean z-score":0.36,"z-score, replicate A":0.39,"z-score, replicate B":0.63,"z-score, replicate C":0.06}
{"gene knocked down":"BEND3 (GeneID 57673)","mean z-score":1.7,"z-score, replicate A":1.41,"z-score, replicate B":1.52,"z-score, replicate C":2.17}
{"gene knocked down":"RPS12P23 (GeneID 338870)","mean z-score":0.31,"z-score, replicate A":0.19,"z-score, replicate B":0.5,"z-score, replicate C":0.24}
{"gene knocked down":"TAF4B (GeneID 6875)","mean z-score":0.05,"z-score, replicate A":-0.19,"z-score, replicate B":0.08,"z-score, replicate C":0.25}
{"gene knocked down":"B4GALNT3 (GeneID 283358)","mean z-score":0.01,"z-score, replicate A":0.33,"z-score, replicate B":-0.13,"z-score, replicate C":-0.16}
